These molecules were tested on HIV-1 NL4-3 viral clone expressing Renilla luciferase. Settings: ratio of CC50 over EC50.
Type: cell-based
Method in brief: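 MT-2 cells (2×10^4/well) were infected at MOI 0.027 with Renilla-luciferase HIV-1 NL4-3 alongside 3-fold compound dilutions for 96 h. Spread was read by EnduRen luminescence and supernatant infectivity on TZM-bl (48 h, MUG fluorescence). Mock-infected cytotoxicity used AlamarBlue. % inhibition versus solvent was fitted by 4-parameter logistic (0–100% constrained) for EC50/CC50.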

Row | Compound | SI
1 | COc1ccc(/C=C/C2NCCc3cc(OCc4ccccc4)c(OC)cc32)cc1Cn1ccnc1C (stereo not drawn) [EN, 6-Benzyloxy-7-methoxy-1-[(E)-2-[4-methoxy-3-[(2-methylimidazol-1-yl)methyl]phenyl]vinyl]-1,2,3,4-tetrahydroisoquinolin] | 21.3
2 | COc1ccc(/C=C/C2NCCc3cc(OCc4ccccc4)c(OC)cc32)cc1COCC(F)(F)F (stereo not drawn) [EO, 6-Benzyloxy-7-methoxy-1-[(E)-2-[4-methoxy-3-(2,2,2-trifluoroethoxymethyl)phenyl]vinyl]-1,2,3,4-tetrahydroisoquinoline] | 3.8
3 | CCOCc1cc(/C=C/C2NCCc3cc(OCc4ccccc4)c(OC)cc32)ccc1OC (stereo not drawn) [EP, (E)-6-(benzyloxy)-1-(3-(ethoxymethyl)-4-methoxystyryl)-7-methoxy-1,2,3,4-tetrahydroisoquinoline] | 4.7
4 | COc1cc2c(cc1OCc1ccccc1)CCNC2/C=C/c1ccc(C(=O)O)cc1 (stereo not drawn) [EQ, 4-[(E)-2-(6-benzyloxy-7-methoxy-1,2,3,4-tetrahydroisoquinolin-1-yl)vinyl]benzoic acid] | 1.4
5 | COc1cc2c(cc1OCc1ccccc1)CCNC2/C=C/c1cccc(C(=O)O)c1 (stereo not drawn) [ER, 3-[(E)-2-(6-benzyloxy-7-methoxy-1,2,3,4-tetrahydroisoquinolin-1-yl)vinyl]benzoic acid] | 1
6 | COc1cc2c(cc1OCc1ccccc1)CCNC2/C=C/c1ccccc1C(=O)O (stereo not drawn) [ES, 2-[(E)-2-(6-benzyloxy-7-methoxy-1,2,3,4-tetrahydroisoquinolin-1-yl)vinyl]benzoic acid] | 1.2
7 | CCOC(=O)c1ccccc1/C=C/C1NCCc2cc(OCc3ccccc3)c(OC)cc21 (stereo not drawn) [ET, Ethyl 2-[(E)-2-(6-benzyloxy-7-methoxy-1,2,3,4-tetrahydroisoquinolin-1-yl)vinyl]benzoate] | 4
8 | COc1ccc(CCC2NCCc3cc(OC)c(OC)cc32)cc1OC (stereo not drawn) [Example A, 1-[2-(3,4-Dimethoxyphenyl)ethyl]-6,7-dimethoxy-1,2,3,4-tetrahydroisoquinoline] | 1
9 | CCc1cc(OC)c(OCc2ccccc2)cc1/C=C/C1NCCc2cc(OCc3ccccc3)c(OC)cc21 (stereo not drawn) [Example AA, 6-benzyloxy-1-[(E)-2-(5-benzyloxy-2-ethyl-4-methoxy-phenyl)vinyl]-7-methoxy-1,2,3,4-tetrahydroisoquinoline] | 26.3
10 | COc1ccc(/C=C/C2NCCc3cc(OCc4ccccc4)c(OC)cc32)cc1OCc1ccccc1 (stereo not drawn) [Example AB, 6-benzyloxy-1-[(E)-2-(3-benzyloxy-4-methoxy-phenyl)vinyl]-7-methoxy-1,2,3,4-tetrahydroisoquinoline] | 27.1
11 | COc1cc(Cl)c(/C=C/C2NCCc3cc(OCc4ccccc4)c(OC)cc32)cc1OCc1ccccc1 (stereo not drawn) [Example AC, 6-benzyloxy-1-[(E)-2-(5-benzyloxy-2-chloro-4-methoxy-phenyl)vinyl]-7-methoxy-1,2,3,4-tetrahydroisoquinoline] | 21.8
12 | COc1cc2c(cc1OCc1ccccc1)CCNC2/C=C/c1cc(OCc2ccccc2)ccc1C (stereo not drawn) [Example AD, 6-benzyloxy-1-[(E)-2-(5-benzyloxy-2-methyl-phenyl)vinyl]-7-methoxy-1,2,3,4-tetrahydroisoquinoline] | 38.1
13 | COc1cc(C)c(/C=C/C2=NCCc3cc(OCc4ccccc4)c(OC)cc32)cc1OCc1ccccc1 [Example AE, 6-benzyloxy-1-[(E)-2-(5-benzyloxy-4-methoxy-2-methyl-phenyl)vinyl]-7-methoxy-3,4-dihydroisoquinoline] | 76.5
14 | COc1ccc(/C=C/C2NCCc3cc(OCc4ccccc4)c(OC)cc32)c(C)c1 (stereo not drawn) [Example AG, 6-benzyloxy-7-methoxy-1-[(E)-2-(4-methoxy-2-methyl-phenyl)vinyl]-1,2,3,4-tetrahydroisoquinoline] | 127.4
15 | COc1cc(C)c(/C=C/C2NCCc3cc(OCc4ccccc4)c(OC)cc32)cc1OC (stereo not drawn) [Example AH, 6-benzyloxy-1-[(E)-2-(4,5-dimethoxy-2-methyl-phenyl)vinyl]-7-methoxy-1,2,3,4-tetrahydroisoquinoline] | 180.8
